In data set [1] the test system is Severe fever with thrombocytopenia syndrome virus. Put plainly: In vivo antiviral activity against SFTSV infected in mouse harboring IFNAR1tm1Agt assessed as animal survival rate at 2.5 mg/kg, po qd treated for 7 days relative to control. Conditions: time 7 day.
Data set [2] has the same test system. Put plainly: In vivo antiviral activity against SFTSV infected in mouse harboring IFNAR1tm1Agt assessed as animal survival rate at 5 to 100 mg/kg, po qd treated for 7 days relative to control. Conditions: dose 5-100 mg/kg, time 7 day.
Data set [3] shares this test system. Put plainly: Antiviral activity against SFTSV infected in mouse harboring IFNAR1tm1Agt assessed as log reduction in viral copy number in lung at 5 mg/kg, po qd treated for 7 days by RT-qPCR analysis. Conditions: time 7 day.
The test system is the same in data set [4]. Put plainly: Antiviral activity against SFTSV infected in mouse harboring IFNAR1tm1Agt assessed as log reduction in viral copy number in liver at 5 mg/kg, po qd treated for 7 days by RT-qPCR analysis. To be noted: time 7 day.
For data set [5] the test system is unchanged. The data set can be described thus: Antiviral activity against SFTSV infected in mouse harboring IFNAR1tm1Agt assessed as log reduction in viral copy number in heart at 5 mg/kg, po qd treated for 7 days by RT-qPCR analysis. Conditions: time 7 day.
Data set [6] has the same test system. Put plainly: Antiviral activity against SFTSV infected in mouse harboring IFNAR1tm1Agt assessed as log reduction in viral copy number in lung at 10 mg/kg, po qd treated for 7 days by RT-qPCR analysis. To be noted: time 7 day. For orientation: In qPCR the cycle at which signal appears reflects the starting amount.
The test system is the same in data set [7]. The data set can be described thus: Antiviral activity against SFTSV infected in mouse harboring IFNAR1tm1Agt assessed as log reduction in viral copy number in lung at 2.5 mg/kg, po qd treated for 7 days by RT-qPCR analysis. To be noted: time 7 day.
For data set [8] the test system is unchanged. Put plainly: Antiviral activity against SFTSV infected in mouse harboring IFNAR1tm1Agt assessed as log reduction in viral copy number in spleen at 5 mg/kg, po qd treated for 7 days by RT-qPCR analysis. To be noted: time 7 day.
The test system is the same in data set [9]. The data set can be described thus: Antiviral activity against SFTSV infected in mouse harboring IFNAR1tm1Agt assessed as log reduction in viral copy number in kidney at 5 mg/kg, po qd treated for 7 days by RT-qPCR analysis. To be noted: time 7 day.
For data set [10] the test system is unchanged. The data set can be described thus: Antiviral activity against SFTSV infected in mouse harboring IFNAR1tm1Agt assessed as log reduction in viral copy number in liver at 10 mg/kg, po qd treated for 7 days by RT-qPCR analysis. Conditions: time 7 day.
Data set [11] shares this test system. Put plainly: Antiviral activity against SFTSV infected in mouse harboring IFNAR1tm1Agt assessed as log reduction in viral copy number in heart at 10 mg/kg, po qd treated for 7 days by RT-qPCR analysis. Conditions: time 7 day.
Data set [12] has the same test system. Put plainly: Antiviral activity against SFTSV infected in mouse harboring IFNAR1tm1Agt assessed as log reduction in viral copy number in liver at 2.5 mg/kg, po qd treated for 7 days by RT-qPCR analysis. To be noted: time 7 day.
For data set [13] the test system is unchanged. Put plainly: Antiviral activity against SFTSV infected in mouse harboring IFNAR1tm1Agt assessed as log reduction in viral copy number in heart at 2.5 mg/kg, po qd treated for 7 days by RT-qPCR analysis. To be noted: time 7 day.
For data set [14] the test system is unchanged. Put plainly: Antiviral activity against SFTSV infected in mouse harboring IFNAR1tm1Agt assessed as log reduction in viral copy number in spleen at 10 mg/kg, po qd treated for 7 days by RT-qPCR analysis. To be noted: time 7 day.
Data set [15] shares this test system. Put plainly: Antiviral activity against SFTSV infected in mouse harboring IFNAR1tm1Agt assessed as log reduction in viral copy number in kidney at 10 mg/kg, po qd treated for 7 days by RT-qPCR analysis. Conditions: time 7 day.
Data set [16] shares this test system. Put plainly: Antiviral activity against SFTSV infected in mouse harboring IFNAR1tm1Agt assessed as log reduction in viral copy number in spleen at 2.5 mg/kg, po qd treated for 7 days by RT-qPCR analysis. Conditions: time 7 day.
The test system is the same in data set [17]. The data set can be described thus: Antiviral activity against SFTSV infected in mouse harboring IFNAR1tm1Agt assessed as log reduction in viral copy number in kidney at 2.5 mg/kg, po qd treated for 7 days by RT-qPCR analysis. Conditions: time 7 day.
Data set [18] can be described thus: Selectivity index, ratio of CC50 for cytotoxicity against human A549 cells to EC50 for antiviral activity against LCMV infected in human A549 cells assessed as reduction in viral replication.

Take `CC(C)C(=O)OC[C@@]1(F)O[C@@H](n2ccc(=O)n(COC(=O)c3cccnc3)c2=O)[C@H](OC(=O)C(C)C)[C@@H]1OC(=O)C(C)C`: the Survival in [1] amounted to 16.7%; in [2], 100%. The log(activity) was determined as 2.4 in [3]; 3.29 in data set [4]; 2.18 in [5]; 3.66 in [6]; 1.33 in data set [7]; 1.85 in data set [8]. The log(activity) in data set [9] turned out to be 2.3; in [10], 4.8; in [11], 3.29; in data set [12], 1.92; in [13], 1.41; in [14] it was 2.2. Also, the values for the log(activity) in [15], in data set [16] and in data set [17] were 3.11, 0.94 and 1.45, respectively. In data set [18], the Ratio CC50/EC50 is above 667.

The values above are taken from ChEMBL document CHEMBL6177980 (J Med Chem, 2025).
